Paper PMC8166163

Biological target: HIV-1 NL4.3 envelope glycoprotein (Env), WT, full-length cytoplasmic tail (HIV-1 NL4.3)

## soluble CD4 (from UniProt P01730 26-396) (receptor)
  neutralisation of HIV-1 NL4.3 WT virus by sCD4, IC50: 5.3 µg/mL
